Compound potency records, mixed from different reports. Data source: NIAID ChemDB in PubChem.

Common to all: tests on isolated targets; organism: HIV-1; protein: Reverse transcriptase; read by: ELISA; endpoint: IC50

ICn is the concentration giving n% inhibition.

smiles	value
CCOC(=O)CC(OCC)n1cc(F)c(=O)[nH]c1=O	27.1 µM
CS(=O)(=O)O.C[C@@H]1CN(c2nc3c(cc2F)c(=O)c(C(=O)O)cn3-c2ccc3ccccc3c2)C[C@H](C)N1	<1 µg/mL
C=CCN1C(=O)c2ccnnc2Oc2ccc(OC)cc21	<330 µM
CCOC(CC(=O)OC)n1ccc(=O)[nH]c1=O	1 µM
CC(=O)O[C@H]1[C@H](C)[C@@H]([C@H](C)[C@@H](O)[C@@H](C)/C=C/C=C(/C)C(=O)NC2=CC(=O)c3c(c(O)c(C)c4oc(C)cc34)C2=O)OC(CC=O)[C@H]1C	>300 µM
CSc1ncc(C(=O)NCCN(C)C)c(Nc2ccc3cn[nH]c3c2)n1	~0.1 µg/mL
COC(=O)/C(C)=C\C=C\[C@H](C)[C@H](O)[C@@H](C)[C@@H](O)[C@@H](C)[C@H](OC(C)=O)[C@H](C)[C@H](/C=C/O[C@@]1(C)Oc2c(C)c(O)c3c(c2C1=O)C(=O)C=C(N)C3=O)OC	>300 µM
CC(C)(C)c1ccnc(C(=O)Nc2cc(Cl)c(Cl)cc2NC(=O)c2cc(C(C)(C)C)ccn2)c1	>6 µM
CSc1ncc(C(=O)NCCN2CCOCC2)c(Nc2ccc3cn[nH]c3c2)n1	~0.1 µg/mL
CCCCOC(=O)CC(OCC)n1cc(C)c(=O)[nH]c1=O	1.05 µM
CS(=O)(=O)O.O=C(O)c1cn(-c2ccc3ccccc3c2)c2nc(N3CCNCC3)c(F)cc2c1=O	1 µg/mL
CSc1ncc(C(=O)N(C)C)c(Nc2ccc3cn[nH]c3c2)n1	~0.1 µg/mL
CCCOC(=O)CC(OCC)n1cc(C)c(=O)[nH]c1=O	2.4 µM
CS(=O)(=O)O.N[C@H]1CCN(c2cc3c(cc2F)c(=O)c(C(=O)O)cn3-c2cccc3ccccc23)C1	>1 µg/mL
C=CCN1C(=O)c2ccnnc2Oc2c(C)cc(C)cc21	<330 µM
CSc1ncc(C(=O)N(C)CCO)c(Nc2ccc3[nH]ncc3c2)n1	~0.1 µg/mL
C=CCn1c2c(c(=O)[nH]c1=O)CCCCC2c1ccccc1	>200 µM
CN1CCN(c2cc3c(cc2F)c(=O)c(C(=O)O)cn3-c2cccc3ccccc23)CC1.CS(=O)(=O)O	<1 µg/mL
O=c1[nH]c(=O)n(COCc2ccccc2)c2c1CCCCC2c1ccccc1	1.51 µM
CS(=O)(=O)O.N[C@H]1CCN(c2nc3c(cc2F)c(=O)c(C(=O)O)cn3-c2ccc3ccccc3c2)C1	<1 µg/mL
CCCN1C(=O)c2ccnnc2Oc2ccc(C)cc21	<330 µM
CS(=O)(=O)O.C[C@@H]1CN(c2cc3c(cc2F)c(=O)c(C(=O)O)cn3-c2cccc3ccccc23)C[C@H](C)N1	~1 µg/mL
O=S(=O)(O)c1ccc(-c2c3nc(c(-c4ccc(S(=O)(=O)O)cc4)c4ccc([nH]4)c(-c4ccc(S(=O)(=O)O)cc4)c4nc(c(-c5ccc(S(=O)(=O)O)cc5)c5ccc2[nH]5)C=C4)C=C3)cc1	>6 µM
CC1CN(c2nc3c(cc2F)c(=O)c(C(=O)O)cn3-c2ccc3ccccc3c2)CCN1.CS(=O)(=O)O	>1 µg/mL
COC(CC1O[C@H]([C@H](C)[C@@H](O)[C@@H](C)/C=C/C=C(/C)C(=O)NC2=CC(=O)c3c(c(O)c(C)c4oc(C)cc34)C2=O)[C@@H](C)[C@H](OC(C)=O)[C@@H]1C)OC	>300 µM

The first 2 rows once more:

smiles,value
CCOC(=O)CC(OCC)n1cc(F)c(=O)[nH]c1=O,27.1 µM
CS(=O)(=O)O.C[C@@H]1CN(c2nc3c(cc2F)c(=O)c(C(=O)O)cn3-c2ccc3ccccc3c2)C[C@H](C)N1,<1 µg/mL

Conditions beyond the fields shown may differ between rows.